Experimental data: paper PMC3520877, “Harpalycin 2 inhibits the enzymatic and platelet aggregation activities of PrTX-III, a D49 phospholipase A2 from Bothrops pirajai venom” (2012)

Amino acid sequences for entries named in this document (tags omitted). A change or cut given only in a name is not applied to a line headed by its entry.
UniProt P58464: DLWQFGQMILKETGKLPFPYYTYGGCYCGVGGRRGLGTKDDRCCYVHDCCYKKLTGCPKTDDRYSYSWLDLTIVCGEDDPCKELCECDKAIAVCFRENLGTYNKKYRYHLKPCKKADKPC

Target: PrTX-III (piratoxin-III), D49 phospholipase A2 (Bothrops pirajai, UniProt P58464)
Assay: chromogenic PLA2 assay, absorbance at […] nm
Conditions: 4-nitro-3-octanoyloxy-benzoic acid substrate, 37°C

Compound	IC50 (20 μg enzyme, DMSO 1%, unit contradictory in the paper: abstract μg/mL, b38 μg per well) [µg/mL]	inhibition of Vo at 425 nm
harpalycin 2	11.34 ± 0.28	–
O=C(CBr)c1ccc(Br)cc1	–	p-BPB showed only a marginal inhibition of PrTX-III catalytic active
